{"source": "the supplement of paper PMC9931576", "assay_in_all_cases": "pseudovirus neutralization IC50; higher = weaker neutralization", "key": {"[1]": {"target": "SARS-CoV-2 Omicron BA.1 spike pseudovirus", "protocol": "(§1)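 Single-round VSV luciferase pseudovirus mixed with antibody dilutions for 1 h and put on Huh-7 cells for about a day; IC50 from the dose curve.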"}, "[2]": {"target": "SARS-CoV-2 Omicron BA.2 spike pseudovirus", "protocol": "as §1"}, "[3]": {"target": "SARS-CoV-2 Omicron BA.2.75 spike pseudovirus", "protocol": "as §1"}, "[4]": {"target": "SARS-CoV-2 Omicron BA.5 spike pseudovirus", "protocol": "as §1"}, "[5]": {"target": "SARS-CoV-2 Omicron BQ.1.1 spike pseudovirus", "protocol": "as §1"}, "[6]": {"target": "SARS-CoV-2 Omicron XBB spike pseudovirus", "protocol": "as §1"}, "[7]": {"target": "SARS-CoV-2 early D614G spike pseudovirus", "protocol": "as §1"}}, "note": "Human monoclonal antibodies against the spike receptor-binding domain (heavy:light variable regions). IC50 against pseudoviruses bearing the spike of naturally observed variants; lower = stronger; >10 µg/ml means not reached at the top dose. No active / inactive call. The stated detection limit is 0.0005 µg/ml; values near or below 0.001 µg/ml lie at the floor of the assay."}
{"binder": "BD55-6630 (protein) chain 1: QVQLVESGGGVVQPGRSLRLSCAASGFIFGDYDMHWVRQAPGKGLEWMAVIWYDGSEQYYGDSVKGRFTISRDNSRNTLYLQMNSLRAADTAVYYCARLSTERKYSGYDHLSQEPNIWGQGTLVTVSS chain 2: SSQLTQDPAVSVALGQTVRITCQGDGLRSYYATWTQQKPGQAPIVVIYGKNKRPSGIPDRFSGSDSGNTASLTITGAQAEDEADYYCSSRDRSDYQYVFGSGTKVTVL", "values": [{"measurement": "pseudovirus neutralization IC50", "setting": "[1]", "result": "> 10", "unit": "µg/mL"}, {"measurement": "pseudovirus neutralization IC50", "setting": "[2]", "result": "> 10", "unit": "µg/mL"}, {"measurement": "pseudovirus neutralization IC50", "setting": "[3]", "result": "> 10", "unit": "µg/mL"}, {"measurement": "pseudovirus neutralization IC50", "setting": "[4]", "result": "> 10", "unit": "µg/mL"}, {"measurement": "pseudovirus neutralization IC50", "setting": "[5]", "result": "> 10", "unit": "µg/mL"}, {"measurement": "pseudovirus neutralization IC50", "setting": "[6]", "result": "> 10", "unit": "µg/mL"}, {"measurement": "pseudovirus neutralization IC50", "setting": "[7]", "result": 1.8, "unit": "µg/mL"}]}
{"binder": "BD55-6637 (protein) chain 1: QVQLQESGPRLVKPSQTLSLTCTVSGDSISSGNYYWSWMRQSAGKGLEWIGRIYSRGSSKYTNNNPSLESRVTISVDTSKNQFSLKLNSVTAADTAVYYCARGGCDTTSCFGFYFYAMDVWGQGTTVSVSS chain 2: DIQMTQSPSSLSASVGDRVTITCQASHDINIYLNWYQQKSGTPPKLLIYDASKLQTGVPSRFSGTASGTHFTFTISSLQPEDFATYFCQQYSNLPLTFGPGTKVDIK", "values": [{"measurement": "pseudovirus neutralization IC50", "setting": "[1]", "result": 1.07, "unit": "µg/mL"}, {"measurement": "pseudovirus neutralization IC50", "setting": "[2]", "result": 1.06, "unit": "µg/mL"}, {"measurement": "pseudovirus neutralization IC50", "setting": "[3]", "result": 1.23, "unit": "µg/mL"}, {"measurement": "pseudovirus neutralization IC50", "setting": "[4]", "result": 1.81, "unit": "µg/mL"}, {"measurement": "pseudovirus neutralization IC50", "setting": "[5]", "result": 1.06, "unit": "µg/mL"}, {"measurement": "pseudovirus neutralization IC50", "setting": "[6]", "result": 1.49, "unit": "µg/mL"}, {"measurement": "pseudovirus neutralization IC50", "setting": "[7]", "result": 1.59, "unit": "µg/mL"}]}
{"binder": "BD55-6638 (protein) chain 1: QLQLQESGPGLVKPSETLSLTCIVSGASISSTSHYWGWIRQPPGKGLEWLGSIYYSGSTYYNPSLRSRVTISVDTSKNQFSLKLSSVTAADAAVYFCARHLGADREERLTSPWYDYYTGGHFDLWGRGTLVTVSS chain 2: QSVLTQPPSVSGAPGQRVTISCVGSSSNIGAGYDVHWYQQLPGAAPKVLIYGNTNRPSGVPDRLSASKSGTSASLAITGLQAEDEADYYCQSYDSRLSGWVFGGGTKLTVL", "values": [{"measurement": "pseudovirus neutralization IC50", "setting": "[1]", "result": 2.98, "unit": "µg/mL"}, {"measurement": "pseudovirus neutralization IC50", "setting": "[2]", "result": "> 10", "unit": "µg/mL"}, {"measurement": "pseudovirus neutralization IC50", "setting": "[3]", "result": "> 10", "unit": "µg/mL"}, {"measurement": "pseudovirus neutralization IC50", "setting": "[4]", "result": "> 10", "unit": "µg/mL"}, {"measurement": "pseudovirus neutralization IC50", "setting": "[5]", "result": "> 10", "unit": "µg/mL"}, {"measurement": "pseudovirus neutralization IC50", "setting": "[6]", "result": "> 10", "unit": "µg/mL"}, {"measurement": "pseudovirus neutralization IC50", "setting": "[7]", "result": 0.124, "unit": "µg/mL"}]}
{"binder": "BD55-6641 (protein) chain 1: QVQMVQSGAEVKKPGASVKVSCKTSGFTFTSYDINWVRQSPGQGLEWMGWMNPDTGDTGYGHQFQGRVTMTRSTSTSTAYMELSSLRSEDTAVYYCARRCTSCGYYYYYAVDVWGQGTTVTVSS chain 2: DIQMTQSPSSLSASVGDRVSITCRASQSINTYLNWYQQKPGKAPKLLICDASTLQSGVPSRFSGSGSGTDFTLTISGLQPEDFATYYCQQSYSFPPTFGPGTTVDIK", "values": [{"measurement": "pseudovirus neutralization IC50", "setting": "[1]", "result": "> 10", "unit": "µg/mL"}, {"measurement": "pseudovirus neutralization IC50", "setting": "[2]", "result": "> 10", "unit": "µg/mL"}, {"measurement": "pseudovirus neutralization IC50", "setting": "[3]", "result": "> 10", "unit": "µg/mL"}, {"measurement": "pseudovirus neutralization IC50", "setting": "[4]", "result": "> 10", "unit": "µg/mL"}, {"measurement": "pseudovirus neutralization IC50", "setting": "[5]", "result": "> 10", "unit": "µg/mL"}, {"measurement": "pseudovirus neutralization IC50", "setting": "[6]", "result": "> 10", "unit": "µg/mL"}, {"measurement": "pseudovirus neutralization IC50", "setting": "[7]", "result": "> 10", "unit": "µg/mL"}]}
{"binder": "BD55-6644 (protein) chain 1: QVQLVQSGGGVVQPGRSLRLSCAASGFTFTRDPMHWVRQTPGKGLEWLTHISHDGSQKSYADSVRGRFIISRDNSKNTLFLHMNSLRVEDTAVYYCARPLWFGDLGGMFDSWGQGTLVTVSS chain 2: EIVMTQSPATLSVSPGERATLSCRASQSVSANLAWYQQKPGQPPRLLLYGASTRAAGFPARFSGSGSGTEFTLTISRLQSEDFAVYYCQQYYDWPRTFGQGTKVEIK", "values": [{"measurement": "pseudovirus neutralization IC50", "setting": "[1]", "result": "> 10", "unit": "µg/mL"}, {"measurement": "pseudovirus neutralization IC50", "setting": "[2]", "result": "> 10", "unit": "µg/mL"}, {"measurement": "pseudovirus neutralization IC50", "setting": "[3]", "result": "> 10", "unit": "µg/mL"}, {"measurement": "pseudovirus neutralization IC50", "setting": "[4]", "result": "> 10", "unit": "µg/mL"}, {"measurement": "pseudovirus neutralization IC50", "setting": "[5]", "result": "> 10", "unit": "µg/mL"}, {"measurement": "pseudovirus neutralization IC50", "setting": "[6]", "result": "> 10", "unit": "µg/mL"}, {"measurement": "pseudovirus neutralization IC50", "setting": "[7]", "result": "> 10", "unit": "µg/mL"}]}
{"binder": "BD55-1284 (protein) chain 1: VQLVQSGAEVKKPGESLRISCKGSGYRFTSNWINWVRQTPEKGLEWMGKIDPSDSYTKYSPSFQGHVTISVDKSSSTAYLQWTSLKVSDTAVYYCARQICGGDCRDDYWGQGTQVIVSS chain 2: DIQMTQSPSSLSASVGDRVTITCQASQDVREFLNWYQQKPGKAPNLLIYDTSNLETGVPSRFSGSGSGTDFTFTITNLQAEDIATYYCQQYSHFPVTFGQGTRLDFK", "values": [{"measurement": "pseudovirus neutralization IC50", "setting": "[1]", "result": 1.75, "unit": "µg/mL"}, {"measurement": "pseudovirus neutralization IC50", "setting": "[2]", "result": 1.64, "unit": "µg/mL"}, {"measurement": "pseudovirus neutralization IC50", "setting": "[3]", "result": 1.86, "unit": "µg/mL"}, {"measurement": "pseudovirus neutralization IC50", "setting": "[4]", "result": 4.69, "unit": "µg/mL"}, {"measurement": "pseudovirus neutralization IC50", "setting": "[5]", "result": 3.8, "unit": "µg/mL"}, {"measurement": "pseudovirus neutralization IC50", "setting": "[6]", "result": 0.647, "unit": "µg/mL"}, {"measurement": "pseudovirus neutralization IC50", "setting": "[7]", "result": 1.46, "unit": "µg/mL"}]}
